# According to paper PMC10743929, “Amphiphilic Sialic Acid Derivatives as Potential Dual-Specific Inhibitors of Influenza Hemagglutinin and Neuraminidase” (International Journal of Molecular Sciences, 2023):
# Tested on: Madin-Darby canine kidney (MDCK) cells
# Conditions: dog
smiles,measurement,value
"NC(=O)c1ncn([C@@H]2O[C@H](CO)[C@@H](O)[C@H]2O)n1 [Ribavirin, reference compound]",Cytotoxicity MCC (minimum cytotoxic concentration),100 ± 0 µM
